Compound potency records, mixed from different reports. Data source: NIAID ChemDB in PubChem.

Shared fields: tests on isolated targets; organism: HIV-1; protein: Integrase; read-out: inhibition

Percent inhibition refers to the dose given; in toxicity tests it is the harm to the cells.

{"structure": "CC[C@H](C)C(O)C(C)(O)/C=C/C1=CC2=CC(=O)[C@](C)(O)[C@H](O)[C@H]2CO1", "dose": "100 µg/mL", "result": "0%"}
{"structure": "O=c1oc2c(O)c(O)cc3c(=O)oc4c(O)c(O)cc1c4c23", "method": "ELISA / strand transfer", "dose": "25 µg/mL", "result": "21.1%"}
{"structure": "COc1c(O)cc2c(c1O)[C@@H]1O[C@H](CO)[C@@H](O)[C@H](O)[C@H]1OC2=O", "method": "3′ processing", "dose": "100 µM", "result": "0%"}
{"structure": "O/N=C1\\C(=C\\c2ccc3c(c2)OCO3)CCCC1C(NO)c1ccc2c(c1)OCO2", "strain": "RF", "method": "strand transfer", "dose": "100 µg/mL", "result": "35.8%"}
{"structure": "Cc1ccc(C(=O)c2ccc(CC(=O)O)n2C)cc1", "method": "AlphaScreen", "dose": "10 µM", "result": "11.09%"}
{"structure": "O=C(O)c1c[nH]c2ccc(S(=O)(=O)N(CCCl)CCCl)cc2c1=O", "method": "strand transfer", "dose": "1000 µM", "result": "99.97%"}
{"structure": "NC(CCSSCCC(N)P(=O)(O)O)P(=O)(O)O", "strain": "RF", "method": "strand transfer", "dose": "100 µg/mL", "result": "49.9%"}
{"structure": "Cc1ccc(N(CCCCl)S(=O)(=O)c2ccc3[nH]cc(C(=O)O)c(=O)c3c2)cc1", "method": "strand transfer", "dose": "1000 µM", "result": "74.51%"}
{"structure": "CC(C)c1c(C(=O)Nc2ccccc2)c(-c2ccccc2)c(-c2ccc(F)cc2)n1CC[C@@H](O)C[C@@H](O)CC(=O)O", "method": "AlphaScreen", "dose": "10 µM", "result": "51.85%"}
{"structure": "Cc1cc(C2(c3cc(C)c(O)c(CN(CC(=O)O)CC(=O)O)c3)OS(=O)(=O)c3ccccc32)cc(CN(CC(=O)O)CC(=O)O)c1O", "strain": "RF", "method": "3′ processing", "dose": "100 µg/mL", "result": "57.7%"}
{"structure": "CC(=O)O[C@@H]1[C@H]2O[C@H]2[C@H]2O[C@@]2(COC(=O)c2ccccc2)[C@H]1OC(C)=O", "method": "ELISA / strand transfer", "dose": "25 µg/mL", "result": "9%"}
{"structure": "CCCCc1[nH]cc(CC(Cc2cccs2)C(=O)O)[n+]1Cc1ccc(C(=O)O)cc1", "method": "AlphaScreen", "dose": "10 µM", "result": "43.67%"}
{"structure": "CC(=O)O[C@H](C)[C@@H]1C2=C(C(=O)C[C@]1(C)O)C(=O)c1c(ccc(-c3ccc4c(c3O)C(=O)C3=C(C4=O)[C@@H]([C@@H](C)OC(C)=O)[C@@](C)(O)CC3=O)c1O)C2=O", "strain": "RF", "method": "strand transfer", "dose": "100 µg/mL", "result": "50%"}
{"structure": "O=C(O)c1c[nH]c2ccc(S(=O)(=O)N3CCN(c4ccccc4)CC3)cc2c1=O", "method": "strand transfer", "dose": "1000 µM", "result": "78.8%"}
{"structure": "NC(N)=NS(=O)(=O)c1ccc(Nc2c3ccccc3nc3c(C(=O)NC(CO)(CO)CO)cccc23)cc1", "strain": "RF", "method": "strand transfer", "dose": "100 µg/mL", "result": "45.7%"}
{"structure": "O=C(O)c1c[nH]c2ccc(S(=O)(=O)N3CCN(c4cccc(C(F)(F)F)c4)CC3)cc2c1=O", "method": "strand transfer", "dose": "1000 µM", "result": "73.16%"}
{"structure": "COC(=O)/C=C/c1ccccc1", "method": "3′ processing", "dose": "100 µM", "result": "0%"}
{"structure": "O=C(O)c1c[nH]c2ccc(S(=O)(=O)N3CCC(C(=O)O)CC3)cc2c1=O", "method": "strand transfer", "dose": "1000 µM", "result": "55.88%"}
{"structure": "CCCCC/C=C/C=C/C(=O)NCC(C)C", "method": "ELISA / strand transfer", "dose": "25 µg/mL", "result": "19%"}
{"structure": "O=C(O)c1c[nH]c2ccc(S(=O)(=O)N3CCN(c4ccc(F)cc4)CC3)cc2c1=O", "method": "strand transfer", "dose": "1000 µM", "result": "89.58%"}
{"structure": "O/N=C1\\C(=C\\c2ccc3c(c2)OCCO3)CCCC1C(NO)c1ccc2c(c1)OCCO2", "strain": "RF", "method": "3′ processing", "dose": "100 µg/mL", "result": "42%"}

The first 2 rows once more:

structure,strain,method,dose,result
CC[C@H](C)C(O)C(C)(O)/C=C/C1=CC2=CC(=O)[C@](C)(O)[C@H](O)[C@H]2CO1,-,-,100 µg/mL,0%
O=c1oc2c(O)c(O)cc3c(=O)oc4c(O)c(O)cc1c4c23,-,ELISA / strand transfer,25 µg/mL,21.1%

An empty or dashed field is not shown. Lines come from different laboratories, so protocols vary.